Our source for the IC50 values is paper PMC7894572 (Chemmedchem, 2020).

Structures are written as SMILES.

For the assay, the target named is SARS‐CoV PL^pro (Severe acute respiratory syndrome coronavirus, UniProt P0C6X7). The assay can be described thus: biochemical.

For `Cc1ccccc1C(=O)N[C@H](C)c1cccc2ccccc12` [Compound 2 a, 2‐Methyl‐N‐[(1R)‐naphth‐1‐ylethyl]benzamide, reference compound], the IC50 came to 3.3 µM.

The term IC50 denotes the concentration at which inhibition is half-maximal. A higher IC50 goes with lower potency.
